Anti-infective test results gathered from many reports (values: NIAID ChemDB through PubChem).

All rows: tests in culture; organism: HIV-1; cell line: CEM; read-out: EC50

Lines come from different laboratories, so protocols vary. ECn: concentration that inhibits the pathogen or its effect by n%. An empty or dashed field is not shown.

compound	strain	changes	read by	result
CCOCn1c(Cc2cc(C)cc(C)c2)c(CC)c(=O)[nH]c1=O	IIIB TIBO R82913-resistant (RT K103N)	RT-K103N	syncytia	0.02 µg/mL
CC(=O)O[C@H](C)[C@@H]1C2=C(C(=O)C[C@]1(C)O)C(=O)c1c(ccc(-c3ccc4c(c3O)C(=O)C3=C(C4=O)[C@@H]([C@@H](C)OC(C)=O)[C@@](C)(O)CC3=O)c1O)C2=O	RF		cytopathic effect / XTT	>0.3 µM
CC(C)=CCOc1cc(NC(=S)c2ccoc2C)ccc1Cl	Y-1 (RT-K103N)	RT-K103N	cytopathic effect	0.05 µg/mL
Fc1cccc(F)c1C1SCc2nc3ccccc3n21		RT-Y188H	cytopathic effect	4.16 µM
Cc1cn([C@H]2C[C@H](N=[N+]=[N-])[C@@H](COC(=O)CNNC(=O)c3ccncc3)O2)c(=O)[nH]c1=O			cytopathic effect / XTT	<0.064 µM
CC(C)=CCN1Cc2cc(Cl)cc3[nH]c(=S)n(c23)C[C@@H]1C	NEV(RT-V106A)	RT-V106A	syncytia	1.6 µM
CN/N=C(/c1nc2ccc([N+](=O)[O-])cc2[nH]c1=O)C(O)c1ccc(C(O)/C(=N/NC)c2nc3ccc([N+](=O)[O-])cc3[nH]c2=O)cc1	RF		cytopathic effect / XTT	>78 µM
c1ccc(C2OCc3nc4ccccc4n32)cc1	Pyridinone-resistant (RT Y181C)	RT-Y181C	cytopathic effect / MTT	≥16.9 µM
CC(C)=CCOc1cc(NC(=S)c2ccsc2C)ccc1Cl	IIIB	RT-E138K	cytopathic effect	0.006 µg/mL
Fc1cccc(F)c1C1OCc2nc3ccccc3n21	Pyridinone-resistant (RT Y181C)	RT-Y181C	cytopathic effect / MTT	≥13.85 µM
Cc1cn([C@@H]2O[C@H](CO[Si](C)(C)C(C)(C)C)C3(OS(=O)(=O)C=C3N)[C@H]2O[Si](C)(C)C(C)(C)C)c(=O)n(C)c1=O	IIIB	RT-L100I	cytopathic effect	0.041 µg/mL
Cc1cn([C@@H]2O[C@H](CO[Si](C)(C)C(C)(C)C)[C@@]3(OS(=O)(=O)C=C3N)[C@H]2O[Si](C)(C)C(C)(C)C)c(=O)[nH]c1=O	IIIB WT		cytopathic effect	0.034 µM
NC(N)=NS(=O)(=O)c1ccc(Nc2c3ccccc3nc3c(C(=O)NC(CO)(CO)CO)cccc23)cc1	RF		cytopathic effect / XTT	>3.3 µM
CCOCn1c(Cc2ccccc2)c(CC)c(=O)[nH]c1=O	IIIB PYR(RT-Y181C)	RT-Y181C	syncytia	0.11 µg/mL
Cc1cn([C@@H]2O[C@H](CO[Si](C)(C)C(C)(C)C)C3(OS(=O)(=O)C=C3N)[C@H]2O[Si](C)(C)C(C)(C)C)c(=O)n(C)c1=O	HEPT (RT Y188H)	RT-Y188H	syncytia	75 µM
O=c1[nH]cnc2c1ncn2[C@H]1CC[C@@H](CO)O1	IIIB	RT-V106A	syncytia	13.5 ± 9.2 µM
CCc1cc(NCc2nc3c(Cl)ccc(Cl)c3o2)c(=O)[nH]c1C	NEV(RT-V106A)	RT-V106A	syncytia	0.6 µM
Cc1cn([C@@H]2O[C@H](CO[Si](C)(C)C(C)(C)C)C3(OS(=O)(=O)C=C3N)[C@H]2O[Si](C)(C)C(C)(C)C)c(=O)n(C)c1=O	NNRTI-resistant	RT-Y181C	cytopathic effect	>15 µM
CC(C)Nc1cccnc1N1CCN(C(=O)c2cc3ccccc3[nH]2)CC1	HEPT (RT Y188H)	RT-Y188H	syncytia	0.88 µM
Cc1cn([C@@H]2O[C@H](CO[Si](C)(C)C(C)(C)C)C3(OS(=O)(=O)C=C3N)[C@H]2O[Si](C)(C)C(C)(C)C)c(=O)n(C)c1=O	IIIB	RT-L100I	p24	0.042 µg/mL
Cc1occc1C(=S)Nc1ccc(Cl)c(/C=N/OC(C)(C)C)c1			cytopathic effect	0.02 µg/mL
Cc1occc1C(=S)Nc1ccc(Cl)c(/C=N/OC(C)(C)C)c1	IIIB	RT-M184I	p24	0.009 µg/mL
Cc1cn([C@H]2C[C@H](N=[N+]=[N-])[C@@H](CO)O2)c(=O)[nH]c1=O	Y-1 (RT-K103N)	RT-K103N	cytopathic effect	0.12 µM
CC(C)c1ccc(C(c2ccc(OCC(=O)O)cc2)c2ccc(C(C)C)cc(=O)c2O)c(O)c(=O)c1	RF		cytopathic effect / XTT	>11.7 µM
CC[C@H]1C(=O)Nc2ccc(F)cc2N1C(=O)OC(C)C	NNRTI-resistant	RT-Y181C	cytopathic effect	0.086 µM
Nc1nc2c(ncn2[C@@H]2O[C@H](CO)[C@@H](O)[C@H]2O)c(=O)o1	IIIB		RT activity	7 µg/mL
CC(C)=CCN1Cc2cc(Cl)cc3[nH]c(=S)n(c23)C[C@@H]1C	IIIB		syncytia	0.02 µg/mL
Cc1ccnc2c1NC(=O)c1cccnc1N2C1CC1	IIIB	RT-K103N	p24	0.5 µg/mL
Nc1nc2c(ncn2[C@H]2CC[C@@H](CO)C2)c(=O)o1	IIIB		RT activity	170 µg/mL
Cc1cn([C@@H]2O[C@H](CO[Si](C)(C)C(C)(C)C)C3(OS(=O)(=O)C=C3N)[C@H]2O[Si](C)(C)C(C)(C)C)c(=O)n(C)c1=O	IIIB PYR(RT-Y181C)	RT-Y181C	syncytia	2.2 µg/mL
Cc1cn([C@H]2C[C@H](N=[N+]=[N-])[C@@H](CO)O2)c(=O)[nH]c1=O			cytopathic effect / XTT	0.009 µM
CCn1c(=O)c(C)cn([C@@H]2O[C@H](CO[Si](C)(C)C(C)(C)C)C3(OS(=O)(=O)C=C3N)[C@H]2O[Si](C)(C)C(C)(C)C)c1=O	IIIB NEV(RT-V106A)	RT-V106A	syncytia	27 µg/mL
CN(C)C1C(=O)C(C(=O)NCNCCC(=O)O)=C(O)C2(O)C(=O)C3=C(O)c4c(O)cccc4C(C)(O)C3CC12	RF		cytopathic effect / XTT	>111 µM
Cc1ccnc2c1NC(=O)c1cccnc1N2C1CC1	P-1 (RT-K103N Y144F)	RT-K103N Y144F	cytopathic effect	2.57 µg/mL
CC(C)=CCN1Cc2cc(Cl)cc3[nH]c(=S)n(c23)C[C@@H]1C	IIIB	RT-M184V	p24	0.011 µg/mL
Nc1nc2c(ncn2[C@@H]2O[C@H](COP(=O)(O)O)[C@@H](O)[C@H]2O)c(=O)o1	IIIB		RT activity	4.1 µg/mL

Repeating the first 2 entries:

compound	strain	changes	read by	result
CCOCn1c(Cc2cc(C)cc(C)c2)c(CC)c(=O)[nH]c1=O	IIIB TIBO R82913-resistant (RT K103N)	RT-K103N	syncytia	0.02 µg/mL
CC(=O)O[C@H](C)[C@@H]1C2=C(C(=O)C[C@]1(C)O)C(=O)c1c(ccc(-c3ccc4c(c3O)C(=O)C3=C(C4=O)[C@@H]([C@@H](C)OC(C)=O)[C@@](C)(O)CC3=O)c1O)C2=O	RF		cytopathic effect / XTT	>0.3 µM